PubChem BioAssay AID504761, Drosophila RNAi Screening Center, 2011
Test: 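Fly genes whose silencing reduces dengue virus type 2 infection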 (primary screen). Cells: D.Mel-2 cells from Drosophila. Reagent: long dsRNA against Drosophila genes. Treatment: infection with dengue virus type 2; dose and infection time not stated. Read-out: 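Per well on two replicate plates, imaging gave the percent of cells positive for viral envelope protein, ranked by infection, and a nuclear count of cells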. Scale: infection score: higher = more virus-infected cells; cell count: higher = more cells in the well. Hit rule: 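Low infection ranks in the two replicates (chance level up to 0.065) followed by a retest with a 1.5-fold or larger significant decrease, p below 0.05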. Meaning of the calls: active = confirmed: knock-down lowers infection; inactive = not picked or not confirmed.
The screen tested about 22,000 reagents; below is a random part of those with a known target gene and a result. Over the whole deposit, 116 (0.52%) are marked active. 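Calls depend on retest data that are not deposited; infection was ranked per plate without normalising between plates; the unit of the infection score is not given.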 Raw values are not corrected between plates. Reagents against one gene are numbered here. Not given: the amount of reagent, the time to read-out.

Target gene	dsRNA no.	infection score, replicate 1	infection score, replicate 2	cell count, replicate 1	cell count, replicate 2	call
CG17646	1	5.02	3.03	6161	5708	inactive
Eip93F	1	5.6	4.82	6630	6137	inactive
Eip93F	2	10.3	2.45	6570	612	inactive
Fbp2	1	14.9	14.5	6270	5680	inactive
Fbp2	2	6.4		2938	296	inactive
PDZ-GEF	1	6.41	13.3	6883	6106	inactive
nan	1	1.93	4.43	6213	6188	inactive
CG43333	1	4.25	5.3	6123	6134	inactive
CG43333	2	1.76	24.5	170	6174	inactive
CG14451	1	8.95	11.6	6627	6629	inactive
CG14451	2	3.17	3.83	5638	5801	inactive
Ggt-1	1	1.4	2.71	6792	5908	inactive
Ggt-1	2	8.77	16	6405	6338	inactive
Zmynd8	1	1.1	4.54	6162	6844	inactive
Zmynd8	2	31.7	15.7	5165	3470	inactive
RpL26	1	3.16	2.07	1520	1446	inactive
CG30338	1	2.08	1.08	6196	6203	inactive
Tmem131	1	12.6	8.25	3824	1685	inactive
Pnn	1	2.24	6.34	6067	6470	inactive
Inx3	1	5.25	9.31	5887	6715	inactive
Inx3	2	4.36	9.73	6406	6893	inactive
CG42266	1	1.32	3.28	6142	6614	inactive
CG42266	2	19.7	7.98	6954	2004	inactive
CG42266	3	25.6	8.88	5844	6014	inactive
Prosalpha2	1	0.65	1.08	464	558	inactive
Prosalpha2	2	0.44	1.34	456	1348	inactive
CG12680	1	1.26	2.02	6250	6692	inactive
lectin-28C	1	5.73	8.16	6143	6614	inactive
lectin-28C	2	12	8.53	6117	6825	inactive
Oseg4	1	12.9	18.1	6003	6144	inactive
CG1946	1	33.2	12.8	5046	4633	inactive
CG1946	2	17.8	13.4	5755	4117	inactive
Ir25a	1	24.3	22.1	6681	6637	inactive
Ir25a	2	10.4		6772		inactive
Ypel	1	8.47	1.97	7004	7000	inactive
Ypel	2	5.05	1.94	5841	6457	inactive
ND-51L2	1	30.3	11.8	4694	6355	inactive
Fur1	1	0.63	0.25	6183	5905	inactive
Fur1	2	1.04	5.5	5989	6238	inactive
CG32221	1	5.43	1.89	5989	5985	inactive

Already shown: 7 of the entries above.
Target gene	dsRNA no.	infection score, replicate 1	infection score, replicate 2	cell count, replicate 1	cell count, replicate 2	call
Zmynd8	1	1.1	4.54	6162	6844	inactive
Zmynd8	2	31.7	15.7	5165	3470	inactive
RpL26	1	3.16	2.07	1520	1446	inactive
CG30338	1	2.08	1.08	6196	6203	inactive
Tmem131	1	12.6	8.25	3824	1685	inactive
Pnn	1	2.24	6.34	6067	6470	inactive
Inx3	1	5.25	9.31	5887	6715	inactive

The list goes on:
Target gene	dsRNA no.	infection score, replicate 1	infection score, replicate 2	cell count, replicate 1	cell count, replicate 2	call
LUBEL	1	1.55	4.93	6600	6892	inactive
LUBEL	2	40.1	22.1	5909	6031	inactive
CG16984	1	4.62	7.59	6239	6521	inactive
CG16984	2	9.32	7.12	966	1067	inactive
CG13054	1	1.2	7.34	6243	6107	inactive
CG13054	2	3.87	4.22	595	758	inactive
CG6933	1	11.7	18.4	6392	6009	inactive
Sh	1	0.34	0.66	591	457	inactive
Sh	2	1.23	1.7	6892	6837	inactive
Sh	3	12.3	11.2	5380	6919	inactive
Sh	4	8.34	1.17	5958	6426	inactive
Sh	5	4.38	9.3	3448	6719	inactive
Rab11	1	17.3	9.83	3820	3103	inactive
Rab11	2	2.98	3.04	5713	5793	inactive
Dis3	1	18.3	8.3	3320	3794	inactive
pyd	1	6.37	10.4	6265	6207	inactive
pyd	2	1.15	1.2	6503	6660	inactive
pyd	3	9.16	8.23	5995	6211	inactive
pyd	4	20.2	16.8	4086	5971	inactive
pyd	5	10.4	11	5681	7023	inactive
pyd	6	1.18	1.22	6084	7049	inactive
pyd	7	4.7	2.43	6168	6712	inactive
